According to patent publication US9814918B2, “Microbial deactivation of explosive compositions” (dated 2017):

Experiments:
[1] = tested on: Gibberella moniliformis CD611; test: Induction of nitroglycerin-degrading activity in Gibberella moniliformis CD611; conditions: 29 h in Luria Broth, 0.5 mM GTN, PETN, 1 mM DMFU, 4 mM DEME, 1 mM TPBO, TBHQ, DMME; for nitroglycerin-degrading activity of cell-free extract: NADPH
[2] = tested on: Agrobacterium tumifaciens PD31; test: Induction of nitroglycerin-degrading activity in Agrobacterium tumifaciens PD31; conditions: 24 h in Luria Broth, 0.5 mM NEM, 0.25 mM MD, 1 mM DMFU, 4 mM DEME, DEMO, DMMO, 0.5 mM GTN, PETN, TNT; for nitroglycerin-degrading activity of cell-free extract: NADH
[3] = tested on: Klebsiella pneumoniae BB6; test: Induction of nitroglycerin-degrading activity in Klebsiella pneumoniae BB6; conditions: 24 h in Luria Broth, 0.5 mM NEM, 0.5 mM MD, 1 mM DMFU, 4 mM DEME, DEMO, DMMO, 0.5 mM GTN, PETN, TNT; for nitroglycerin-degrading activity of cell-free extract: NADPH

## COC(=O)/C=C\C(=O)OC
[1]
  Fold-Induction relative to the control: 25 fold
  nitroglycerin-degrading activity of cell-free extract: 2.5 U/g

## CC1=CC(=O)c2ccccc2C1=O
[2]
  Fold-Induction relative to the control: 1.3 fold
  nitroglycerin-degrading activity of cell-free extract: 24 U/g
[3]
  Fold-Induction relative to the control: 8.8 fold
  nitroglycerin-degrading activity of cell-free extract: 25 U/g

## CCN1C(=O)C=CC1=O
[2]
  nitroglycerin-degrading activity of cell-free extract: 27 U/g
[3]
  Fold-Induction relative to the control: 1.6 fold
  nitroglycerin-degrading activity of cell-free extract: 4.5 U/g

## O=[N+]([O-])OCC(CO[N+](=O)[O-])O[N+](=O)[O-]
[2]
  nitroglycerin-degrading activity of cell-free extract: 19 U/g
[3]
  Fold-Induction relative to the control: 1.0 fold
  nitroglycerin-degrading activity of cell-free extract: <0.10 U/g
[1]
  nitroglycerin-degrading activity of cell-free extract: <0.10 U/g

## CC(C)(C)c1cc(O)ccc1O
[1]
  Fold-Induction relative to the control: 2.5 fold
  nitroglycerin-degrading activity of cell-free extract: 0.25 U/g

## CC(=O)/C=C/c1ccccc1
[1]
  Fold-Induction relative to the control: 1.0 fold
  nitroglycerin-degrading activity of cell-free extract: <0.10 U/g

## COC(=O)CC(=O)OC
[2]
  Fold-Induction relative to the control: 1.1 fold
  nitroglycerin-degrading activity of cell-free extract: 21 U/g
[3]
  Fold-Induction relative to the control: 1.6 fold
  nitroglycerin-degrading activity of cell-free extract: 4.6 U/g

## CCOC(=O)/C=C\C(=O)OCC
[2]
  nitroglycerin-degrading activity of cell-free extract: 29 U/g
[3]
  Fold-Induction relative to the control: 58 fold
  nitroglycerin-degrading activity of cell-free extract: 165 U/g
[1]
  Fold-Induction relative to the control: 27 fold
  nitroglycerin-degrading activity of cell-free extract: 2.7 U/g

## COC(=O)/C=C/C(=O)OC
[2]
  Fold-Induction relative to the control: 1.3 fold
  nitroglycerin-degrading activity of cell-free extract: 24 U/g
[3]
  Fold-Induction relative to the control: 106 fold
  nitroglycerin-degrading activity of cell-free extract: 303 U/g
[1]
  Fold-Induction relative to the control: 11 fold
  nitroglycerin-degrading activity of cell-free extract: 1.1 U/g

## CCOC(=O)CC(=O)OCC
[2]
  Fold-Induction relative to the control: 1.2 fold
  nitroglycerin-degrading activity of cell-free extract: 22 U/g
[3]
  Fold-Induction relative to the control: 5.1 fold
  nitroglycerin-degrading activity of cell-free extract: 15 U/g
